Results of unrelated studies side by side (data: NIAID ChemDB).

All rows: growth or infection tests; organism: Rhinovirus

ECn: concentration that inhibits the pathogen or its effect by n%. An empty or dashed field is not shown. Percent inhibition refers to the dose given; in toxicity tests it is the harm to the cells. Conditions beyond the fields shown may differ between rows.

structure,dose,endpoint,cells,strain or isolate,method,value
CSc1nsc(-c2ccc(OCCOc3ccc([N+](=O)[O-])cc3)cc2)c1C#N,-,EC50,HELA-OHIO,Serotype 41 (group B),cytopathic effect,>2 µM
O=C(Nc1ccc(S(=O)(=O)[O-])c2cccc(S(=O)(=O)[O-])c12)c1ccccc1,10 µg/mL,inhibition,Human embryonic lung cells,-,cytopathic effect,63%
Cc1cc(CCCOc2c(C)cc(-c3noc(C(F)(F)F)n3)cc2C)on1,-,EC50,OHIO HELA-I,Isolate 13,cytopathic effect / visual reading,0.02 µg/mL
NCS(=O)(=O)O,5 µg/mL,inhibition,Human amnion AV3 cells,-,cytopathic effect,40%
CS(=O)(=O)c1ccc2c(c1)CCC(c1ccc(Cl)c(Cl)c1)O2,1.05 µg/mL,inhibition,-,17 serotypes,-,53%
CSc1nsc(-c2ccccc2)c1C#N,-,EC50,HELA-OHIO,Serotype 70 (group A),cytopathic effect,>80 µM
CSc1nsc(-c2ccc(OCCCOc3ccccc3)cc2)c1C#N,-,EC50,HELA-OHIO,Serotype 41 (group B),cytopathic effect,>20 µM
CN(C)c1ccc(Cn2cnc3c(N(C)C)nc(C(F)(F)F)nc32)cc1,8 µM,inhibition,M-HELA,Serotype 19,plaque count,23%
FC(F)(F)c1cccc(C2CCN(c3ccc(Cl)nn3)C2)c1,0.008 µg/mL,inhibition,-,100 serotypes,-,18%
Cc1cc(-c2ccc(N=Nc3c(N)c(S(=O)(=O)O)cc4cc(S(=O)(=O)O)ccc34)c(C)c2)ccc1N=Nc1c(N)ccc2cc(S(=O)(=O)O)ccc12,50 µg/mL,inhibition,Human embryonic lung cells,-,cytopathic effect,100%
CN(C)c1nc(C(F)(F)F)nc2c1ncn2Cc1ccc(Cl)cc1Cl,8 µM,inhibition,M-HELA,Serotype 3,plaque count,17%
Cc1cccc(C2=CCN(c3ccc(Br)nn3)CC2)c1,0.338 µg/mL,inhibition,-,100 serotypes,-,53%
O=C(Nc1c(S(=O)(=O)[O-])cc2cc(S(=O)(=O)[O-])cc(O)c2c1O)c1ccccc1,10 µg/mL,inhibition,Human amnion AV3 cells,-,cytopathic effect,18%
CN(C)c1nc(C(F)(F)F)nc2c1ncn2Cc1cccc(F)c1,8 µM,inhibition,M-HELA,Serotype 31,plaque count,43%
Cc1cc(CCCCCOc2c(Cl)cc(C3=NCCO3)cc2Cl)on1,-,EC50,HeLa,TYPE 19,plaque count,0.044 µg/mL
N#Cc1ccc(Cn2cnc3c(Nc4cccc(F)c4)nc(C(F)(F)F)nc32)cc1,-,EC50,M-HELA,Serotype 2,plaque count,68 µM
N#Cc1cc([N+](=O)[O-])ccc1Oc1ccc(Cl)c(Cl)c1,0.048 µg/mL,inhibition,VERO,TYPE 1A,-,11%
Fc1cccc(Cn2cnc3c(Nc4cccc(F)c4)nc(C(F)(F)F)nc32)c1,-,EC50,M-HELA,Serotype 39,plaque count,12 µM
COc1ccc(N2CCN(c3cccc(C)c3)CC2)nn1,9.6 µg/mL,inhibition,-,100 serotypes,-,71%
O=C(Nc1ccc2c(O)c(N=Nc3ccc(N=Nc4ccc(S(=O)(=O)O)cc4)cc3)c(S(=O)(=O)O)cc2c1)c1ccccc1,5 µg/mL,inhibition,Human amnion AV3 cells,-,cytopathic effect,0%
CSc1nsc(-c2ccc(OCCCCOc3ccc([N+](=O)[O-])cc3)cc2)c1C#N,-,EC50,HELA-OHIO,Serotype 9 (group B),cytopathic effect,>0.5 µM
CCCCCCCCCCCCCCOc1ccc(C(C)=O)o1,0.091 µg/mL,inhibition,-,100 serotypes,-,18%
CCO/N=C/c1ccc(OCCC2CCN(c3ccc(Cl)nn3)CC2)cc1,-,EC50,KB,204-CV14 (ICAM-1 receptor group 10),neutral red,0.773 µM
CCOC(=O)c1ccc(OCCOc2ccc(-c3snc(SC)c3C#N)cc2)cc1,-,EC50,HELA-OHIO,Serotype 14 (group A),cytopathic effect,>2 µM

The first 3 rows once more:

structure,dose,endpoint,cells,strain or isolate,method,value
CSc1nsc(-c2ccc(OCCOc3ccc([N+](=O)[O-])cc3)cc2)c1C#N,-,EC50,HELA-OHIO,Serotype 41 (group B),cytopathic effect,>2 µM
O=C(Nc1ccc(S(=O)(=O)[O-])c2cccc(S(=O)(=O)[O-])c12)c1ccccc1,10 µg/mL,inhibition,Human embryonic lung cells,-,cytopathic effect,63%
Cc1cc(CCCOc2c(C)cc(-c3noc(C(F)(F)F)n3)cc2C)on1,-,EC50,OHIO HELA-I,Isolate 13,cytopathic effect / visual reading,0.02 µg/mL